The target in the assay is T1, HIV-1 gp120 (Human immunodeficiency virus type 1 group M subtype B, UniProt P04578).
T1 construct: The purified HIV-1 gp120 was adsorbed onto a polystyrrol surface; made in house; host or cells: HIV-1 strain IIIB infected human H9 cells (virus-derived, not recombinant)
The following applies: immobilized gp120, coincubation overnight at 37° C.; four-parameter logistic spline interpolation; read-out: IC50 of binding of biotinylated mannan to gp120.

Take mannan: the 50% inhibitory concentration (IC50) (as a rule, the concentration needed to halve the response being measured) worked out at 240 nM.

The record behind these values is patent publication US20040063624A1, “Method of inhibiting the transition of free HIV virus through the cllular mucosal barrier” (priority 1999, published 2004).
